Among the targets are NM15 (influenza A virus); NM16 (influenza A virus); M15 (influenza A virus); M16 (influenza A virus); NM17 (influenza A virus).
What all share (test): ELISA on peptide, Ab 10 µg/ml
(An ELISA detects its analyte on a solid surface through an enzyme-linked reagent.)

B1: N547 (antibody, V domains shown)
VH: EVQLVESGGGLVKPGGSLRLSCAASGFTFSNALMSWVRQAPGKGLEWVGRIKSKTNGGTTDYAAPVKGRFTISRDDSKNTLYLQMNSLKTEDTAVYYCTTHLRYFDWLSDYWGQGTLVTVSS
VL: QSVLTQPPSMSAAPGQKVTISCSGSSSNIGNNYISWYQQLPGTAPKVLIYDNNKRPSGIPDRFSGSKSGTSATLGITGLQTGDEADYYCGSWDSSLSAGVFGTGTKVTVLG
Regarding B1, the ELISA(OD450) in the experiment with NM15 (influenza A virus) worked out at 0.09 OD450; in the experiment with NM16 (influenza A virus), 1.13 OD450; with M15 (influenza A virus) it was 0.07 OD450; in the experiment with M16 (influenza A virus), 0.68 OD450; in the experiment with NM17 (influenza A virus), 1.04 OD450.

Source of the values: patent publication US20090162366A1.
